The series relates to HepG2-NTCP cells. In words: TMT-based phosphoproteome profiling of HBV-infected vs mock HepG2-NTCP (HBV/mock ratio). More on the design: species or system human. As to conditions: phosphosite abundance ratio of host protein, HBV-infected vs mock HepG2-NTCP, 7dpi, sheet Up-regulated.

B1: O75153 1xPhospho [S664(100)] (protein, UniProt O75153 1-1309, looked up)
Clustered mitochondria …: MLLNGDCPESLKKEAAAAEPPRENGLDEAGPGDETTGQEVIVIQDTGFSVKILAPGIEPFSLQVSPQEMVQEIHQVLMDREDTCHRTCFSLHLDGNVLDHFSELRSVEGLQEGSVLRVVEEPYTVREARIHVRHVRDLLKSLDPSDAFNGVDCNSLSFLSVFTDGDLGDSGKRKKGLEMDPIDCTPPEYILPGSRERPLCPLQPQNRDWKPLQCLKVLTMSGWNPPPGNRKMHGDLMYLFVITAEDRQVSITASTRGFYLNQSTAYHFNPKPASPRFLSHSLVELLNQISPTFKKNFAVLQKKRVQRHPFERIATPFQVYSWTAPQAEHAMDCVRAEDAYTSRLGYEEHIPGQTRDWNEELQTTRELPRKNLPERLLRERAIFKVHSDFTAAATRGAMAVIDGNVMAINPSEETKMQMFIWNNIFFSLGFDVRDHYKDFGGDVAAYVAPTNDLNGVRTYNAVDVEGLYTLGTVVVDYRGYRVTAQSIIPGILERDQEQSVIYGSIDFGKTVVSHPRYLELLERTSRPLKILRHQVLNDRDEEVELCSSVECKGIIGNDGRHYILDLLRTFPPDLNFLPVPGEELPEECARAGFPRAHRHKLCCLRQELVDAFVEHRYLLFMKLAALQLMQQNASQLETPSSLENGGPSSLESKSEDPPGQEAGSEEEGSSASGLAKVKELAETIAADDGTDPRSREVIRNACKAVGSISSTAFDIRFNPDIFSPGVRFPESCQDEVRDQKQLLKDAAAFLLSCQIPGLVKDCMEHAVLPVDGATLAEVMRQRGINMRYLGKVLELVLRSPARHQLDHVFKIGIGELITRSAKHIFKTYLQGVELSGLSAAISHFLNCFLSSYPNPVAHLPADELVSKKRNKRRKNRPPGAADNTAWAVMTPQELWKNICQEAKNYFDFDLECETVDQAVETYGLQKITLLREISLKTGIQVLLKEYSFDSRHKPAFTEEDVLNIFPVVKHVNPKASDAFHFFQSGQAKVQQGFLKEGCELINEALNLFNNVYGAMHVETCACLRLLARLHYIMGDYAEALSNQQKAVLMSERVMGTEHPNTIQEYMHLALYCFASSQLSTALSLLYRARYLMLLVFGEDHPEMALLDNNIGLVLHGVMEYDLSLRFLENALAVSTKYHGPKALKVALSHHLVARVYESKAEFRSALQHEKEGYTIYKTQLGEDHEKTKESSEYLKCLTQQAVALQRTMNEIYRNGSSANIPPLKFTAPSMASVLEQLNVINGILFIPLSQKDLENLKAEVARRHQLQEASRNRDRAEEPMATEPAPAGAPGDLGSQPPAAKDPSPSVQG
modifications: phosphorylated S664
For B1, the HBV/mock came to 1.363.

B2: P83436 1xPhospho [S506(100)] (protein, UniProt P83436 1-770, looked up)
Conserved oligomeric Golgi …: MDFSKFLADDFDVKEWINAAFRAGSKEAASGKADGHAATLVMKLQLFIQEVNHAVEETSHQALQNMPKVLRDVEALKQEASFLKEQMILVKEDIKKFEQDTSQSMQVLVEIDQVKSRMQLAAESLQEADKWSTLSADIEETFKTQDIAVISAKLTGMQNSLMMLVDTPDYSEKCVHLEALKNRLEALASPQIVAAFTSQAVDQSKVFVKVFTEIDRMPQLLAYYYKCHKVQLLAAWQELCQSDLSLDRQLTGLYDALLGAWHTQIQWATQVFQKPHEVVMVLLIQTLGALMPSLPSCLSNGVERAGPEQELTRLLEFYDATAHFAKGLEMALLPHLHEHNLVKVTELVDAVYDPYKPYQLKYGDMEESNLLIQMSAVPLEHGEVIDCVQELSHSVNKLFGLASAAVDRCVRFTNGLGTCGLLSALKSLFAKYVSDFTSTLQSIRKKCKLDHIPPNSLFQEDWTAFQNSIRIIATCGELLRHCGDFEQQLANRILSTAGKYLSDSCSPRSLAGFQESILTDKKNSAKNPWQEYNYLQKDNPAEYASLMEILYTLKEKGSSNHNLLAAPRAALTRLNQQAHQLAFDSVFLRIKQQLLLISKMDSWNTAGIGETLTDELPAFSLTPLEYISNIGQYIMSLPLNLEPFVTQEDSALELALHAGKLPFPPEQGDELPELDNMADNWLGSIARATMQTYCDAILQIPELSPHSAKQLATDIDYLINVMDALGLQPSRTLQHIVTLLKTRPEDYRQVSKGLPRRLATTVATMRSVNY
modifications: phospho S506
In the case of B2, the HBV/mock amounted to 1.517.

B3: P54105 1xPhospho [S102(100)] (protein, UniProt P54105 2-237, looked up)
Methylosome subunit pICln: SFLKSFPPPGPAEGLLRQQPDTEAVLNGKGLGTGTLYIAESRLSWLDGSGLGFSLEYPTISLHALSRDRSDCLGEHLYVMVNAKFEEESKEPVADEEEEDSDDDVEPITEFRFVPSDKSALEAMFTAMCECQALHPDPEDEDSDDYDGEEYDVEAHEQGQGDIPTFYTYEEGLSHLTAEGQATLERLEGMLSQSVSSQYNMAGVRTEDSIRDYEDGMEVDTTPTVAGQFEDADVDH
modifications: phosphorylated S102
Take B3: the HBV/mock was found to be 1.4484.

B4: Q8WTW3 1xPhospho [S/T] (protein, UniProt Q8WTW3 2-980, looked up)
Conserved oligomeric Golgi …: ATAATSPALKRLDLRDPAALFETHGAEEIRGLERQVRAEIEHKKEELRQMVGERYRDLIEAADTIGQMRRCAVGLVDAVKATDQYCARLRQAGSAAPRPPRAQQPQQPSQEKFYSMAAQIKLLLEIPEKIWSSMEASQCLHATQLYLLCCHLHSLLQLDSSSSRYSPVLSRFPILIRQVAAASHFRSTILHESKMLLKCQGVSDQAVAEALCSIMLLEESSPRQALTDFLLARKATIQKLLNQPHHGAGIKAQICSLVELLATTLKQAHALFYTLPEGLLPDPALPCGLLFSTLETITGQHPAGKGTGVLQEEMKLCSWFKHLPASIVEFQPTLRTLAHPISQEYLKDTLQKWIHMCNEDIKNGITNLLMYVKSMKGLAGIRDAMWELLTNESTNHSWDVLCRRLLEKPLLFWEDMMQQLFLDRLQTLTKEGFDSISSSSKELLVSALQELESSTSNSPSNKHIHFEYNMSLFLWSESPNDLPSDAAWVSVANRGQFASSGLSMKAQAISPCVQNFCSALDSKLKVKLDDLLAYLPSDDSSLPKDVSPTQAKSSAFDRYADAGTVQEMLRTQSVACIKHIVDCIRAELQSIEEGVQGQQDALNSAKLHSVLFMARLCQSLGELCPHLKQCILGKSESSEKPAREFRALRKQGKVKTQEIIPTQAKWQEVKEVLLQQSVMGYQVWSSAVVKVLIHGFTQSLLLDDAGSVLATATSWDELEIQEEAESGSSVTSKIRLPAQPSWYVQSFLFSLCQEINRVGGHALPKVTLQEMLKSCMVQVVAAYEKLSEEKQIKKEGAFPVTQNRALQLLYDLRYLNIVLTAKGDEVKSGRSKPDSRIEKVTDHLEALIDPFDLDVFTPHLNSNLHRLVQRTSVLFGLVTGTENQLAPRSSTFNSQEPHNILPLASSQIRFGLLPLSMTSTRKAKSTRNIETKAQVVPPARSTAGDPTVPGSLFRQLVSEEDNTSAPSLFKLGWLSSMTK
modifications: phospho
Turning to B4, the HBV/mock was found to be 1.43.

B5: P42684 1xPhospho [S631(100)] (protein, UniProt P42684 2-1182, looked up)
Tyrosine-protein kinase ABL2: GQQVGRVGEAPGLQQPQPRGIRGSSAARPSGRRRDPAGRTTETGFNIFTQHDHFASCVEDGFEGDKTGGSSPEALHRPYGCDVEPQALNEAIRWSSKENLLGATESDPNLFVALYDFVASGDNTLSITKGEKLRVLGYNQNGEWSEVRSKNGQGWVPSNYITPVNSLEKHSWYHGPVSRSAAEYLLSSLINGSFLVRESESSPGQLSISLRYEGRVYHYRINTTADGKVYVTAESRFSTLAELVHHHSTVADGLVTTLHYPAPKCNKPTVYGVSPIHDKWEMERTDITMKHKLGGGQYGEVYVGVWKKYSLTVAVKTLKEDTMEVEEFLKEAAVMKEIKHPNLVQLLGVCTLEPPFYIVTEYMPYGNLLDYLRECNREEVTAVVLLYMATQISSAMEYLEKKNFIHRDLAARNCLVGENHVVKVADFGLSRLMTGDTYTAHAGAKFPIKWTAPESLAYNTFSIKSDVWAFGVLLWEIATYGMSPYPGIDLSQVYDLLEKGYRMEQPEGCPPKVYELMRACWKWSPADRPSFAETHQAFETMFHDSSISEEVAEELGRAASSSSVVPYLPRLPILPSKTRTLKKQVENKENIEGAQDATENSASSLAPGFIRGAQASSGSPALPRKQRDKSPSSLLEDAKETCFTRDRKGGFFSSFMKKRNAPTPPKRSSSFREMENQPHKKYELTGNFSSVASLQHADGFSFTPAQQEANLVPPKCYGGSFAQRNLCNDDGGGGGGSGTAGGGWSGITGFFTPRLIKKTLGLRAGKPTASDDTSKPFPRSNSTSSMSSGLPEQDRMAMTLPRNCQRSKLQLERTVSTSSQPEENVDRANDMLPKKSEESAAPSRERPKAKLLPRGATALPLRTPSGDLAITEKDPPGVGVAGVAAAPKGKEKNGGARLGMAGVPEDGEQPGWPSPAKAAPVLPTTHNHKVPVLISPTLKHTPADVQLIGTDSQGNKFKLLSEHQVTSSGDKDRPRRVKPKCAPPPPPVMRLLQHPSICSDPTEEPTALTAGQSTSETQEGGKKAALGAVPISGKAGRPVMPPPQVPLPTSSISPAKMANGTAGTKVALRKTKQAAEKISADKISKEALLECADLLSSALTEPVPNSQLVDTGHQLLDYCSGYVDCIPQTRNKFAFREAVSKLELSLQELQVSSAAAGVPGTNPVLNNLLSCVQEISDVVQR
modifications: phosphorylated S631
For B5, the HBV/mock is 1.3095.

B6: Q8N1G2 1xPhospho [S66(100)] (protein, UniProt Q8N1G2 1-835, looked up)
Cap-specific mRNA …: MKRRTDPECTAPIKKQKKRVAELALSLSSTSDDEPPSSVSHGAKASTTSLSGSDSETEGKQHSSDSFDDAFKADSLVEGTSSRYSMYNSVSQKLMAKMGFREGEGLGKYSQGRKDIVEASSQKGRRGLGLTLRGFDQELNVDWRDEPEPSACEQVSWFPECTTEIPDTQEMSDWMVVGKRKMIIEDETEFCGEELLHSVLQCKSVFDVLDGEEMRRARTRANPYEMIRGVFFLNRAAMKMANMDFVFDRMFTNPRDSYGKPLVKDREAELLYFADVCAGPGGFSEYVLWRKKWHAKGFGMTLKGPNDFKLEDFYSASSELFEPYYGEGGIDGDGDITRPENISAFRNFVLDNTDRKGVHFLMADGGFSVEGQENLQEILSKQLLLCQFLMALSIVRTGGHFICKTFDLFTPFSVGLVYLLYCCFERVCLFKPITSRPANSERYVVCKGLKVGIDDVRDYLFAVNIKLNQLRNTDSDVNLVVPLEVIKGDHEFTDYMIRSNESHCSLQIKALAKIHAFVQDTTLSEPRQAEIRKECLRLWGIPDQARVAPSSSDPKSKFFELIQGTEIDIFSYKPTLLTSKTLEKIRPVFDYRCMVSGSEQKFLIGLGKSQIYTWDGRQSDRWIKLDLKTELPRDTLLSVEIVHELKGEGKAQRKISAIHILDVLVLNGTDVREQHFNQRIQLAEKFVKAVSKPSRPDMNPIRVKEVYRLEEMEKIFVRLEMKIIKGSSGTPKLSYTGRDDRHFVPMGLYIVRTVNEPWTMGFSKSFKKKFFYNKKTKDSTFDLPADSIAPFHICYYGRLFWEWGDGIRVHDSQKPQDQDKLSKEDVLSFIQMHRA
modifications: phosphorylated S66
On to B6, for which the HBV/mock is reported as 1.309.

B7: Q8N1G2 2xPhospho [S66(99.8); S] (protein, UniProt Q8N1G2 1-835, looked up)
Cap-specific mRNA …: B6 Cap-specific mRNA …
modifications: 2x phospho incl. S66
As to B7, the HBV/mock was found to be 1.782.

B8: Q8N1G2 2xPhospho [S51(96.1); S53(96.1)] (protein, UniProt Q8N1G2 1-835, looked up)
Cap-specific mRNA …: B6 Cap-specific mRNA …
modifications: phosphorylated S51, S53
Turning to B8, the HBV/mock was determined as 1.356.
